Where two headings read alike, the source gives them in different places.
Tests used:
Experiment in all cases: cell-based or functional assay
[1] = biological target: HIV-1 envelope glycoprotein gp120 of virus 92US727 (HIV-1)
[2] = biological target: HIV-1 envelope glycoprotein gp120 of virus 92HT593 (HIV-1)
[3] = biological target: HIV-1 envelope glycoprotein gp120 of virus 92US657 (HIV-1)
[4] = biological target: HIV-1 envelope glycoprotein gp120 of virus 92US712 (HIV-1)
[5] = biological target: HIV-1 envelope glycoprotein gp120 of virus BaL (HIV-1)
[6] = biological target: HIV-1 envelope glycoprotein gp120 of virus 92US727 (HIV-1); remark: listed apart in the source
[7] = biological target: HIV-1 envelope glycoprotein gp120 of virus 92HT593 (HIV-1); remark: listed apart in the source
[8] = biological target: HIV-1 envelope glycoprotein gp120 of virus 92US657 (HIV-1); remark: listed apart in the source
[9] = biological target: HIV-1 envelope glycoprotein gp120 of virus 92US712 (HIV-1); remark: listed apart in the source
[10] = biological target: HIV-1 envelope glycoprotein gp120 of virus 302076 (HIV-1)
[11] = biological target: HIV-1 envelope glycoprotein gp120 of virus 7467 (HIV-1)
[12] = biological target: HIV-1 envelope glycoprotein gp120 of virus CH058 (HIV-1)
[13] = biological target: HIV-1 envelope glycoprotein gp120 of virus 7015 (HIV-1)
[14] = biological target: HIV-1 envelope glycoprotein gp120 of virus RHPA (HIV-1)
[15] = biological target: HIV-1 envelope glycoprotein gp120 of virus 1489 (HIV-1)
[16] = biological target: HIV-1 envelope glycoprotein of virus WITO (HIV-1)
[17] = biological target: HIV-1 envelope glycoprotein gp120 of virus 8176 (HIV-1)
[18] = biological target: HIV-1 envelope glycoprotein gp120 of virus 8318 (HIV-1)
[19] = biological target: HIV-1 envelope glycoprotein gp120 of virus 7576 (HIV-1)
[20] = biological target: HIV-1 envelope glycoprotein gp120 of virus 7051 (HIV-1)
[21] = biological target: HIV-1 envelope glycoprotein gp120 of virus 8089 (HIV-1)
[22] = biological target: HIV-1 envelope glycoprotein gp120 of virus 8106 (HIV-1)
[23] = biological target: HIV-1 envelope glycoprotein gp120 of virus 8359 (HIV-1)
[24] = biological target: HIV-1 envelope glycoprotein gp120 of virus 8117 (HIV-1)
[25] = biological target: HIV-1 envelope glycoprotein gp120 of virus CH077 (HIV-1)
[26] = biological target: HIV-1 envelope glycoprotein gp120 of virus CH106 (HIV-1)
[27] = biological target: HIV-1 envelope glycoprotein gp120 of virus REJO (HIV-1)
[28] = biological target: HIV-1 envelope glycoprotein gp120 of virus THRO (HIV-1)
[29] = biological target: HIV-1 envelope glycoprotein gp120 of virus 1413 (HIV-1)
[30] = biological target: HIV-1 envelope glycoprotein gp120 of virus 8320 (HIV-1)
[31] = biological target: HIV-1 envelope glycoprotein gp120 of virus 7103 (HIV-1)
[32] = biological target: HIV-1 envelope glycoprotein gp120 of virus 8134 (HIV-1)
[33] = biological target: HIV-1 envelope glycoprotein gp120 of virus 7141 (HIV-1)
[34] = biological target: HIV-1 envelope glycoprotein gp120 of virus 8110 (HIV-1)
[35] = biological target: HIV-1 envelope glycoprotein gp120 of virus 7714 (HIV-1)
[36] = biological target: HIV-1 envelope glycoprotein gp120 of virus 1003 (HIV-1)
[37] = biological target: HIV-1 envelope glycoprotein gp120 of virus 7595 (HIV-1)
[38] = biological target: HIV-1 envelope glycoprotein gp120 of virus 8398 (HIV-1)
[39] = biological target: HIV-1 envelope glycoprotein gp120 of virus 7406 (HIV-1)
[40] = biological target: HIV-1 envelope glycoprotein gp120 of virus 7552 (HIV-1)
[41] = biological target: HIV-1 envelope glycoprotein gp120 of virus 7007 (HIV-1)
[42] = biological target: HIV-1 envelope glycoprotein gp120 of virus BaL (HIV-1); remark: listed apart in the source
[43] = biological target: HIV-1 envelope glycoprotein gp120 of virus 302076 (HIV-1); remark: listed apart in the source

B1: Antibody A-1 (antibody, human IgG1, kappa)
heavy: QVQLLQSGAAVTKPGASVRVSCEASGYNIRDYFIHWWRQAPGQGLQWVGWINPKTGQPNNPRQFQGRVSLTRHASWDFDTFSFYMDLKALRSDDTAVYFCARQRSDYWDFDVWGSGTQVTVSSASTKGPSVFPLAPSSKSTSGGTAALGCLVKDYFPEPVTVSWNSGALTSGVHTFPAVLQSSGLYSLSSVVTVPSSSLGTQTYICNVNHKPSNTKVDKKVEPKSCDKTHTCPPCPAPELLAGPDVFLFPPKPKDTLMISRTPEVTCVVVDVSHEDPEVKFNWYVDGVEVHNAKTKPREEQYNSTYRVVSVLTVLHQDWLNGKEYKCKVSNKALPLPEEKTISKAKGQPREPQVYTLPPSREEMTKNQVSLTCLVKGFYPSDIAVEWESNGQPENNYKTTPPVLDSDGSFFLYSKLTVDKSRWQQGNVFSCSVLHEALHSHYTQKSLSLSPGK
light: not shown
With B1 the “Virus Neutralization Potency” value [1] was 6.08 µg/mL, the “Virus Neutralization Potency” value [2] was 0.013 µg/mL and the “Virus Neutralization Potency” value [3] was 2.16 µg/mL. The “Virus Neutralization Potency” value [4] was 0.085 µg/mL, the “Virus Neutralization Potency” value [5] was 0.15 µg/mL and the “Virus Neutralization Potency” value [6] was 1.82 µg/mL. The “Virus Neutralization Potency” value [7] was 0.12 µg/mL, the “Virus Neutralization Potency” value [8] was 1.81 µg/mL and the “Virus Neutralization Potency” value [9] was 0.11 µg/mL. The “Virus Neutralization Potency” value [10] was 0.1 µg/mL, the “Virus Neutralization Potency” value [11] was 0.07 µg/mL and the “Virus Neutralization Potency” value [12] was 0.1 µg/mL. For the same binder, the “Virus Neutralization Potency” value [13] was 0.14 µg/mL, the “Virus Neutralization Potency” value [14] was 0.16 µg/mL and the “Virus Neutralization Potency” value [15] was 0.16 µg/mL. The “Virus Neutralization Potency” value [16] was 0.26 µg/mL, the “Virus Neutralization Potency” value [17] was 0.28 µg/mL and the “Virus Neutralization Potency” value [18] was 0.38 µg/mL. The “Virus Neutralization Potency” value [19] was 0.46 µg/mL, the “Virus Neutralization Potency” value [20] was 0.61 µg/mL and the “Virus Neutralization Potency” value [21] was 0.67 µg/mL. For the same binder, the “Virus Neutralization Potency” value [22] was 1.03 µg/mL, the “Virus Neutralization Potency” value [23] was 1.56 µg/mL and the “Virus Neutralization Potency” value [24] was 1.93 µg/mL. The “Virus Neutralization Potency” value [25] was 2.45 µg/mL, the “Virus Neutralization Potency” value [26] was 2.71 µg/mL and the “Virus Neutralization Potency” value [27] was 2.88 µg/mL. The “Virus Neutralization Potency” value [28] was 3.1 µg/mL, the “Virus Neutralization Potency” value [29] was 3.84 µg/mL and the “Virus Neutralization Potency” value [30] was 4.07 µg/mL. For the same binder, the “Virus Neutralization Potency” value [31] was 4.82 µg/mL, the “Virus Neutralization Potency” value [32] was 5.08 µg/mL and the “Virus Neutralization Potency” value [33] was 5.35 µg/mL. The “Virus Neutralization Potency” value [34] was 7.09 µg/mL, the “Virus Neutralization Potency” value [35] was 8.96 µg/mL and the “Virus Neutralization Potency” value [36] was 23 µg/mL. The “Virus Neutralization Potency” value [37] was 24.6 µg/mL, the “Virus Neutralization Potency” value [38] was greater than 200 µg/mL and the “Virus Neutralization Potency” value [39] was greater than 200 µg/mL. The “Virus Neutralization Potency” value [40] was greater than 200 µg/mL and the “Virus Neutralization Potency” value [41] was greater than 200 µg/mL.

B2: Antibody 1.37.51-1 (antibody, human IgG1, kappa, V domains shown)
VH: QVQLVQSGAEVKKPGASVRVSCKASGYNIRDYFIHWWRQAPGQGLQWVGWINPKTGQPNNPRQFQGRVSLTRHASWDFDTYSFYMDLSRLRSDDTAVYFCARQRSDYWDFDVWGQGTMVTVSS
VL: DIQMTQSPSSLSASVGDRVTITCQANGYLNWYQQKPGKAPKLLIYDGSKLETGVPSRFSGSRWGQEYTLTINNLQPEDIATYFCQVYEFFGPGTRLDLKR
In the case of B2, the “Virus Neutralization Potency” value [42] is reported as 0.053 µg/mL, the “Virus Neutralization Potency” value [1] is reported as greater than 20 µg/mL and the “Virus Neutralization Potency” value [2] is reported as 0.014 µg/mL. The “Virus Neutralization Potency” value [3] was 2.58 µg/mL, the “Virus Neutralization Potency” value [4] was 0.149 µg/mL and the “Virus Neutralization Potency” value [43] was 0.112 µg/mL. The “Virus Neutralization Potency” value [5] was 0.82 µg/mL, the “Virus Neutralization Potency” value [6] was 50.3 µg/mL and the “Virus Neutralization Potency” value [7] was 0.12 µg/mL. For the same binder, the “Virus Neutralization Potency” value [9] was 0.13 µg/mL, the “Virus Neutralization Potency” value [10] was 0.06 µg/mL and the “Virus Neutralization Potency” value [11] was 0.06 µg/mL. The “Virus Neutralization Potency” value [12] was 0.09 µg/mL, the “Virus Neutralization Potency” value [13] was 0.1 µg/mL and the “Virus Neutralization Potency” value [14] was 0.09 µg/mL. For the same binder, the “Virus Neutralization Potency” value [15] was 0.26 µg/mL, the “Virus Neutralization Potency” value [16] was 0.11 µg/mL and the “Virus Neutralization Potency” value [17] was 0.18 µg/mL. The “Virus Neutralization Potency” value [18] was 0.37 µg/mL, the “Virus Neutralization Potency” value [19] was 0.34 µg/mL and the “Virus Neutralization Potency” value [20] was 0.49 µg/mL. The “Virus Neutralization Potency” value [21] was 1.14 µg/mL, the “Virus Neutralization Potency” value [22] was 0.97 µg/mL and the “Virus Neutralization Potency” value [23] was 1.51 µg/mL. For the same binder, the “Virus Neutralization Potency” value [24] was 0.92 µg/mL, the “Virus Neutralization Potency” value [25] was 2.29 µg/mL and the “Virus Neutralization Potency” value [26] was 2.8 µg/mL. The “Virus Neutralization Potency” value [27] was 3.04 µg/mL, the “Virus Neutralization Potency” value [28] was 1.28 µg/mL and the “Virus Neutralization Potency” value [29] was 2.45 µg/mL. The “Virus Neutralization Potency” value [30] was 4.09 µg/mL, the “Virus Neutralization Potency” value [31] was 2.28 µg/mL and the “Virus Neutralization Potency” value [32] was 6.97 µg/mL. The “Virus Neutralization Potency” value [33] was 51 µg/mL, the “Virus Neutralization Potency” value [34] was 4.14 µg/mL and the “Virus Neutralization Potency” value [35] was 4.33 µg/mL. For the same binder, the “Virus Neutralization Potency” value [36] was 12.6 µg/mL, the “Virus Neutralization Potency” value [37] was 16.2 µg/mL and the “Virus Neutralization Potency” value [38] was greater than 200 µg/mL. The “Virus Neutralization Potency” value [39] was greater than 200 µg/mL, the “Virus Neutralization Potency” value [40] was greater than 200 µg/mL and the “Virus Neutralization Potency” value [41] was greater than 200 µg/mL.

— patent US20220089698A1, “ANTIBODIES THAT TARGET HIV GP120 AND METHODS OF USE” (published 2022)
